Compound potency records, mixed from different reports. Data source: NIAID ChemDB in PubChem.

Shared fields: whole-cell or culture tests; species: HIV-1; measure: EC50

An empty or dashed field is not shown. Lines come from different laboratories, so protocols vary. ECn is the concentration giving n% inhibition of infection, replication or growth.

SMILES | cells | strain | changes | conditions | value
Cc1cc(C)cc(Cn2c(=O)c(I)cn(Cc3ccccc3)c2=O)c1 | PBMC | IIIB | - | - | 41.7 µM
Nc1nc(=O)n([C@@H]2CC[C@H](CO)O2)cc1F | HT4 + HT4 LacZ-1 | 184V (RT-M184V) | RT-M184V | - | >200 µM
Cc1cc(C)cc(Cn2c(=O)ccn(Cc3c(F)cccc3F)c2=O)c1 | PBMC | IIIB | - | - | 0.115 µM
OCCN1CCN(CCCN2c3ccccc3Sc3ccc(Cl)cc32)CC1 | MT-4 | LAV | - | - | >1 µg/mL
Cc1ccc(NC(=O)CSc2nnc(C)n2-c2ccc(Cl)c3ccccc23)c(Cl)c1 | HeLa | - | Y188L | - | 0.324 µM
CCc1c(Sc2ccccn2)n(COCc2ccccc2)c(=O)[nH]c1=O | - | UC781-RS(RT-Y181C | RT-Y181C | - | 3.1 µM
Cc1cc(C)nc(Cn2c(=O)ccn(Cc3ccccc3)c2=O)c1 | PBMC | IIIB | - | - | 7.31 µM
Cc1cn([C@H]2C[C@H](N=[N+]=[N-])[C@@H](CO)O2)c(=O)[nH]c1=O | PBMC | BaL | - | - | 0.009 µM
O=C1N(Cc2cccc(Cn3nccn3)c2)[C@H](Cc2ccccc2)[C@H](O)[C@@H](O)[C@@H](Cc2ccccc2)N1Cc1ccc2[nH]ncc2c1 | MT-2 | RF | - | - | <0.032 µM
CC(C)=CCOc1cc(NC(=S)c2ccoc2C)ccc1Cl | PBMC | WEJO | - | - | 0.007 µM
O=C(Nc1nccs1)c1cccc(CN2C(=O)N(Cc3ccc4[nH]ncc4c3)[C@H](Cc3ccccc3)[C@H](O)[C@@H](O)[C@H]2Cc2ccccc2)c1 | MT-2 | RF WT | - | - | <0.008 µM
Nc1nc(=O)n([C@@H]2CS[C@H](CO)O2)cc1F | HT4 + HT4 LacZ-1 | 184V (RT-M184V) | RT-M184V | - | >500 µM
CC(C)(C)NC(=O)[C@@H]1CN(C(C)(C)c2cc3cnccc3o2)CCN1C[C@@H](O)C[C@@H](Cc1ccccc1)C(=O)N[C@H]1c2ccccc2C[C@H]1O | MT-4 | NL4-3 | - | - | <0.015 µM
COc1ccc(-n2c(C)nnc2SCC(=O)Nc2ccc(C)cc2Cl)c2ccccc12 | HeLa | - | Y188L | - | 0.24 µM
CN1C(=O)CN=C(c2ccccc2)c2cc(Cl)ccc21 | MT-4 | LAV | - | - | >100 µg/mL
Cc1cn([C@@H]2O[C@H](CO[Si](C)(C)C(C)(C)C)C3(OS(=O)(=O)C=C3N)[C@H]2O[Si](C)(C)C(C)(C)C)c(=O)n(C)c1=O | MT-4 | IIIB | - | - | 0.06 µM
COc1ccc2c(c1)N(C[C@H](C)CN(C)C)c1ccccc1S2 | MT-4 | LAV | - | - | >10 µg/mL
Cc1cn([C@@H]2O[C@H](CO[Si](C)(C)C(C)(C)C)[C@@]3(OS(=O)(=O)C=C3N)[C@H]2O[Si](C)(C)C(C)(C)C)c(=O)[nH]c1=O | - | - | - | - | 0.05 µM
Nc1ccn([C@H]2CC[C@@H](CO)O2)c(=O)n1 | CEM + CEM TK- | LAI | - | - | 0.0019 µM
CC(C)(C)NC(=O)[C@@H]1C[C@@H]2CCCC[C@@H]2CN1C[C@@H](O)[C@H](Cc1ccccc1)NC(=O)[C@H](CC(N)=O)NC(=O)c1ccc2ccccc2n1 | MT-4 | NL4-3 | A28S L33F V82I GRL04810-resistant | - | 0.032 µM
Nc1ccn([C@@H]2CC[C@H](CO)O2)c(=O)n1 | CEM + CEM-SS | LAI | - | - | 0.42 µM
COc1cc(Cn2c(=O)ccn(CC#N)c2=O)cc(OC)c1 | PBMC | IIIB | - | - | 5.64 µM
Nc1nc2c(ncn2[C@H]2CO[C@@H](CO)O2)c(=O)[nH]1 | H9 | IIIB | - | - | 0.06 µM
CN1CCC(=C2c3ccccc3C=Cc3ccccc32)CC1 | MT-4 | LAV | - | - | >10 µg/mL
CC=CCOc1cc(NC(=S)c2ccoc2C)ccc1OC | - | UC781-RS(RT-Y181C | RT-Y181C | - | 1.6 µM
O=C1N(Cc2ccc(F)c(NCc3nc4ccccc4[nH]3)c2)[C@H](Cc2ccccc2)[C@H](O)[C@@H](O)[C@@H](Cc2ccccc2)N1Cc1ccc2[nH]ncc2c1 | MT-2 | RF | - | - | <0.03 µM
NS(=O)(=O)c1cc2c(cc1Cl)NC(C(Cl)Cl)NS2(=O)=O | MT-4 | LAV | - | - | >100 µg/mL
Nc1ncnc2c1ncn2[C@H]1CC[C@@H](CO)O1 | Monocytes/macrophages | - | - | - | 0.17 µM
Cc1cccc(NC(=O)CSc2nnc(C)n2-c2ccccc2)c1C | HeLa | - | - | - | 0.0005 µM
O=C(Nc1ccccn1)c1cccc(CN2C(=O)N(Cc3ccc4[nH]ncc4c3)[C@H](Cc3ccccc3)[C@H](O)[C@@H](O)[C@H]2Cc2ccccc2)c1 | MT-2 | RF | - | - | <0.005 µM
CC(C)CN(C[C@@H](O)[C@H](Cc1ccccc1)NC(=O)O[C@H]1CCOC1)S(=O)(=O)c1ccc(N)cc1 | PBMC | Clinical isolate | L10I I15V K20R L24I M36I M46L I54V I62V L63P K70Q V82A L89M | clinical isolate, multidrug-resistant | 0.21 µM
O=C1N(Cc2cccc(Cn3ccnn3)c2)[C@H](Cc2ccccc2)[C@H](O)[C@@H](O)[C@@H](Cc2ccccc2)N1Cc1ccc2[nH]ncc2c1 | MT-2 | RF | - | - | <0.03 µM
COc1ccc(S(=O)(=O)N(CC(C)C)C[C@@H](O)[C@H](Cc2ccc(OCP(=O)(O)O)cc2)NC(=O)O[C@H]2CO[C@H]3OCC[C@H]32)cc1 | MT-2 + MT-4 | IIIB | - | - | >50 µM
COC(=O)[C@H](Cc1ccccc1)NP(=O)(O)OC[C@H]1C[C@@H](n2cnc3c(N)nccc32)[C@H](O)[C@@H]1O | PBMC | LAI | - | - | 0.4 µM
CC(C)(C)NC(=O)[C@@H]1C[C@@H]2CCCC[C@@H]2CN1C[C@@H](O)[C@H](Cc1ccccc1)NC(=O)[C@H](CC(N)=O)NC(=O)c1ccc2ccccc2n1 | MT-2 | RF | - | - | 0.019 µM
NC12CC3CC(CC(C3)C1)C2 | MT-4 | LAV | - | - | <10 µg/mL
CN=C1N(C)C(=O)OC12[C@@H](CO[Si](C)(C)C(C)(C)C)O[C@@H](n1cc(C)c(=O)n(C)c1=O)[C@@H]2O[Si](C)(C)C(C)(C)C | MT-4 | IIIB | - | - | >7 µM
CC(C)c1cc2c(c(O)c1O)[C@@]1(C(=O)O)CCCC(C)(C)C1CC2 | PBMC | clinical isolate 1(MOKW WT R5) | - | - | 0.018 µM
CC(C)=CCN1Cc2cc(Cl)cc3[nH]c(=S)n(c23)C[C@@H]1C | MT-4 | - | RT-D67N K70R T215Y K219Q K103N | - | <3 µM
CC(=O)Oc1ccc(/C=C/C(=O)O[C@@H](C(=O)O)[C@@H](OC(=O)/C=C/c2ccc(OC(C)=O)c(OC(C)=O)c2)C(=O)O)cc1OC(C)=O | MT-4 | NL4-3 | Dextran sulfate-resistant | - | >74 µM
Cc1ccc2cc(Cl)cnc2c1-n1c(C)nnc1SCC(=O)Nc1ccc(S(N)(=O)=O)cc1Cl | HeLa | - | - | - | 0.002 µM
CC(C)(C)NC(=O)[C@@H]1CN(C(C)(C)c2cc3cnccc3o2)CCN1C[C@@H](O)C[C@@H](Cc1ccccc1)C(=O)N[C@H]1c2ccccc2OC[C@H]1O | - | K-60C (PR L10I S37N M46I I54V Q58E L63P I64V V77I V82F L90M I93L) | PR-L10I S37N M46I I54V Q58E L63P I64V V77I V82F L90M I93L | - | <0.5 µM
CC(C)CN(C[C@@H](O)[C@H](Cc1ccccc1)NC(=O)O[C@H]1CO[C@H]2OCC(F)(F)[C@H]21)S(=O)(=O)c1ccc(N)cc1 | MT-4 | NL4-3 | L23I E34Q K43I M46I I50L G51A L63P A71V V82A T91A ATV resistant | - | 0.04 µM
C=C(CC[C@@H](C)[C@H]1CC=C2C3=C([C@@H](O)[C@H](OC(C)=O)[C@@]21C)[C@@]1(C)C[C@@H](O)[C@H](OS(=O)(=O)O)C(C)(C)[C@@H]1CC3)C(C)C | - | - | - | - | <25 µM
COC1=C(OC)C(=O)C(C/C=C(\C)CC/C=C(\C)CC/C=C(\C)CC/C=C(\C)CC/C=C(/C)CC/C=C(\C)CC/C=C(\C)CC/C=C(\C)CC/C=C(\C)CCC=C(C)C)=C(C)C1=O | MT-4 | LAV | - | - | >100 µg/mL
CC(C)Nc1ccc(Cl)nc1N(C)C1CCN(C(=O)c2cc3cc(NS(C)(=O)=O)ccc3[nH]2)CC1 | - | NL4-3 | - | - | 0.6 µg/mL
Cc1ccc(C)c(Cn2c(=O)ccn(CC#N)c2=O)c1 | PBMC | IIIB | - | - | 24.5 µM

A second listing of 6 rows from above:

SMILES,cells,strain,changes,conditions,value
COc1cc(Cn2c(=O)ccn(CC#N)c2=O)cc(OC)c1,PBMC,IIIB,-,-,5.64 µM
O=C(Nc1ccccn1)c1cccc(CN2C(=O)N(Cc3ccc4[nH]ncc4c3)[C@H](Cc3ccccc3)[C@H](O)[C@@H](O)[C@H]2Cc2ccccc2)c1,MT-2,RF,-,-,<0.005 µM
CC(C)=CCOc1cc(NC(=S)c2ccoc2C)ccc1Cl,PBMC,WEJO,-,-,0.007 µM
COc1ccc2c(c1)N(C[C@H](C)CN(C)C)c1ccccc1S2,MT-4,LAV,-,-,>10 µg/mL
CC(C)(C)NC(=O)[C@@H]1CN(C(C)(C)c2cc3cnccc3o2)CCN1C[C@@H](O)C[C@@H](Cc1ccccc1)C(=O)N[C@H]1c2ccccc2OC[C@H]1O,-,K-60C (PR L10I S37N M46I I54V Q58E L63P I64V V77I V82F L90M I93L),PR-L10I S37N M46I I54V Q58E L63P I64V V77I V82F L90M I93L,-,<0.5 µM
Cc1ccc(NC(=O)CSc2nnc(C)n2-c2ccc(Cl)c3ccccc23)c(Cl)c1,HeLa,-,Y188L,-,0.324 µM